PubChem BioAssay AID504761 | Drosophila RNAi Screening Center, 2011

- Purpose: 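Fly genes whose silencing reduces dengue virus type 2 infection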 (primary screen)
- System: D.Mel-2 cells from Drosophila
- Reagent: long dsRNA against Drosophila genes
- Challenge: infection with dengue virus type 2; dose and infection time not stated
- Measured: 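Cells stained for dengue envelope protein and imaged; percent of infected cells per well on duplicate plates, ranked by infection, with stained nuclei counted for cell number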
- Scale: infection score: higher = more virus-infected cells; cell count: higher = more cells in the well
- Rule for the call: 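Very low infection ranking in both replicate wells (chance probability at most 0.065), then a retest showing infection dropped 1.5-fold or more at p below 0.05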
- Meaning of the calls: active = confirmed: knock-down lowers infection; inactive = not picked or not confirmed
In all, the deposit lists about 22,000 reagents; below is a random part of those that have a named target and a result. Over the whole deposit, 116 (0.52%) are marked active. 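Calls depend on retest data that are not deposited; infection was ranked per plate without normalising between plates; the unit of the infection score is not given.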 The raw values are shown without normalisation. Unmarked entries are inactive. Not given: the amount of reagent, the time to read-out.

gene	DRSC id	infection score, replicate 1	infection score, replicate 2	cell count, replicate 1	cell count, replicate 2
CG9919	DRSC20219	11.9	4.72	6425	6329
Hers	DRSC19429	3.84	2.73	6072	6192
Hers	DRSC19676	3.48	1.67	5977	5863
Hers	DRSC24330	7.47	5.76	7015	6681
Frq1	DRSC19961	5.64	15.6	6680	6872
Frq1	DRSC25439	4.4	2.35	6312	5951
CRIF	DRSC11811	6.92	7.59	4521	4837
CRIF	DRSC26514	6.79	2.85	4712	5641
Axud1	DRSC00270	6.16	3.07	6265	6255
CG8281	DRSC10976	3.81	2.68	6584	6239
CG5928	DRSC18391	4.54	8.06	6447	6577
CG5928	DRSC25853	1.74	4.52	6271	6749
Golgin84	DRSC15269	8.63	18	6963	5505
Pka-R1	DRSC11674	11.7	8.75	5906	6400
Pka-R1	DRSC11875	4.91	9.95	6267	6230
Pka-R1	DRSC25205	8.87	18.1	6100	5333
su(f)	DRSC20907	3.2	0.2	5274	5871
Drs	DRSC08657	1.74	5.86	5575	5824
Drs	DRSC27852	3.98	34.7	5751	4939
Mcad	DRSC09871	9.95	10.8	6381	6000
Mcad	DRSC25980	5.43	1	6633	6586
chic	DRSC03507	9.43	11.4	4686	5717
DptA	DRSC07404	1.37	0.75	6045	6758
lmd	DRSC15618	4.64	9.05	6333	6507
lmd	DRSC29194	11.7	9.36	3275	1817
Toll-9	DRSC11776	8.79	4.19	6088	5587
CG13731	DRSC10059	3.26	4.01	6624	6465
CG13731	DRSC27584	3.4	5	6297	6804
CG7607	DRSC10889	4.84	6.26	6384	6244
CG5089	DRSC06914	8.71	6.76	6855	6868
CG5089	DRSC30089	5.62	8.85	6570	5109
CG34443	DRSC29357	14.3	4.53	5652	4883
CG12204	DRSC19442	8.6	1.7	6585	6601
CG12204	DRSC26143	6.27	3.16	6429	6295
CG31200	DRSC15285	3.76	5.03	6463	6405
Erasp	DRSC07111	42	48.7	2908	5683
CG44433	DRSC06517	3.52	0.79	6193	6433
CG44433	DRSC06518	0.57	2.8	6130	6144
CG44433	DRSC26571	4.9	7	5793	6203

In a second layout: results already given.
| gene | DRSC id | infection score, replicate 1 | infection score, replicate 2 | cell count, replicate 1 | cell count, replicate 2 |
| --- | --- | --- | --- | --- | --- |
| CG5928 | DRSC18391 | 4.54 | 8.06 | 6447 | 6577 |
| CG5928 | DRSC25853 | 1.74 | 4.52 | 6271 | 6749 |
| Golgin84 | DRSC15269 | 8.63 | 18 | 6963 | 5505 |
| Pka-R1 | DRSC11674 | 11.7 | 8.75 | 5906 | 6400 |
